For one compound, IC50 results are on record in ChEMBL document CHEMBL1129975, “Depsides and depsidones as inhibitors of HIV-1 integrase: discovery of novel inhibitors through 3D database searching” (J Med Chem, 1997).

SMILES strings stand for the structures.

The target in test [1] is T1, Human immunodeficiency virus type 1 integrase (Human immunodeficiency virus 1, UniProt Q7ZJM1). Nature of the test: Inhibitory concentration of compound against strand transfer of HIV-1 integrase in experiment 1.
Test [2] has as its target T1, Human immunodeficiency virus type 1 integrase. Nature of the test: Inhibitory concentration of compound against 3'-processing of HIV-1 integrase in experiment 1.
Test [3] has the same target. Nature of the test: Inhibitory concentration of compound against 3'-processing of HIV-1 integrase in experiment 2.
Test [4] shares this target. As to the kind of experiment: Inhibitory concentration of compound against strand transfer of HIV-1 integrase in experiment 2.

For orientation: IC50 means the concentration at which inhibition is half-maximal. Read a low IC50 as inhibition by little substance.

Consider `O=C(O)c1c([N+](=O)[O-])cc([N+](=O)[O-])c(-c2c([N+](=O)[O-])cc([N+](=O)[O-])c(C(=O)O)c2[N+](=O)[O-])c1[N+](=O)[O-]`, for which the IC50 in test [1] stood at 15 µM; in test [2], 18.2 µM; in test [3] it was 46.1 µM; in test [4], 43.3 µM.
